The entries are a selection whose mix differs from that of the whole data set. Records with an inconclusive call do not appear. Active and inactive are the calls of the source. Calls follow the shape of the dose curve; as a rule, active = well fitted inhibition curve with a large enough effect; inconclusive = small, poorly fitted or top-dose-only effect, or another doubt; inactive = no such curve, though single readings can be large or run the other way.
Test: Primary qHTS for delayed death inhibitors of the malarial parasite plastid, 96 hour incubation
Conditions: P. falciparum luciferase reporter growth; series mostly up to 28.7 µM; activity change, negative = inhibition: at the top concentration
% is scaled to controls: 0 for no effect and ±100 for the full control effect; potency is read from the fitted curve at half-maximal effect.

Row | SMILES | Potency | activity change, negative = inhibition
1 | CP(=O)(Nc1ccc(SC(F)(F)F)cc1)Oc1ccccc1 (centres undefined) | active: 1.31 µM | –
2 | CCCOc1ccc(NP(C)(=O)Oc2ccc(Cl)cc2)cc1 (centres undefined) | active: 1.31 µM | –
3 | CN(C)C1(CNC(=O)c2ccc(S(C)(=O)=O)cc2)CCCCC1 | – | inactive: 35.5%
4 | C=C(C=O)CC1CC(O)[C@]2(C)OC3C[C@@H]4OC5C[C@]6(C)O[C@]7(C)CCC8OC9C[C@]%10(C)OC(/C(C)=C\CO)C(O)CC%10OC9CC(C)C8OC7CC6O[C@]5(C)C/C=C\C4OC3CC2O1 (some centres undefined) | active: 9.28 µM | –
5 | CCN(CC)CCCOC(=O)C(O)(c1ccccc1)c1ccccc1 | – | inactive: 6.13%
6 | CP(=O)(NC(=O)Nc1ccccc1)Oc1ccccc1 (centres undefined) | active: 7.38 µM | –
7 | CP(=O)(Nc1ccc(Cl)cc1)Oc1ccc(F)cc1 (centres undefined) | active: 0.586 µM | –
8 | O=C(OCCCN1CCCC1)C(O)(c1ccccc1)C1CCCCC1 (centres undefined) | – | inactive: -19.5%
9 | CP(=O)(Nc1ccc(Cl)cc1Cl)Oc1ccccc1 (centres undefined) | active: 2.08 µM | –
10 | Cc1cc(C)cc(OP(C)(=O)Nc2cccc(C(F)(F)F)c2)c1 (centres undefined) | active: 8.28 µM | –
11 | COc1ccccc1OP(C)(=O)Nc1ccc(C)c(C)c1 (centres undefined) | active: 4.65 µM | –
12 | CC(C)c1ccc(OP(C)(=O)Nc2ccc(SC(F)(F)F)cc2)cc1 (centres undefined) | active: 4.65 µM | –
13 | O=[N+]([O-])c1ccc(OP2(=O)COCCO2)cc1 (centres undefined) | – | inactive: 45.9%
14 | CN(C)C1(CNC(=O)c2ccc(Cl)c(S(N)(=O)=O)c2)CCCCC1 | – | inactive: 23.4%

Reference: PubChem BioAssay AID504834 (National Center for Advancing Translational Sciences (NCATS), 2011)
